Laboratory results: the NIST ThermoML archive (doi:10.1021/acs.jced.5b00285)

Conditions: 101.33 kPa, Liquid; for electrical conductivity: Alternating current cell with electrodes; for mass density: Vibrating tube method

CCCCn1cc[n+](C)c1.O=S(=O)(F)[N-]S(=O)(=O)F [1-butyl-3-methylimidazolium bis(fluorosulfonyl)imide]
Conditions | electrical conductivity [S/m] | mass density [kg/m3] | viscosity [mPa·s]
273.15 K | 0.291 | 1379.2 | 98.81
278.15 K | 0.37 | 1374.73 | 76.48
283.15 K | 0.462 | 1370.3 | 60.41
288.15 K | 0.561 | 1365.9 | 48.6
293.15 K | 0.681 | 1361.53 | 39.71
298.15 K | 0.816 | 1357.17 | 32.93
303.15 K | 0.953 | 1352.85 | 27.64
308.15 K | 1.12 | – | –
313.15 K | 1.27 | 1344.27 | 20.22
318.15 K | 1.47 | – | –
323.15 K | 1.64 | 1335.79 | 15.35
328.15 K | 1.86 | – | –
333.15 K | 2.04 | 1327.38 | 12.01
338.15 K | 2.29 | – | –
343.15 K | 2.48 | 1319.05 | 9.651
348.15 K | 2.77 | – | –
353.15 K | 2.94 | 1310.8 | 7.918
358.15 K | 3.28 | – | –
363.15 K | – | 1302.61 | 6.626
368.15 K | 3.83 | – | –
378.15 K | 4.4 | – | –
388.15 K | 4.99 | – | –
398.15 K | 5.6 | – | –
408.15 K | 6.23 | – | –
418.15 K | 6.87 | – | –
428.15 K | 7.53 | – | –
438.15 K | 8.2 | – | –
448.15 K | 8.89 | – | –
458.15 K | 9.62 | – | –
468.15 K | 10.3 | – | –
